“Also recorded” adds a separate entry of the source.
How the values were obtained:
[1] = Tracking of body temperature (Anipill) after LPS injection; format: in vivo, mouse; conditions: for increase in body temperature: LPS 50 μg/kg i.p., ˜4-5 hours after the treatment
MIA offspring = assay: Three-chamber social approach assay in PBS and MIA offspring; format: in vivo, mouse
Procedure: Adult male mice were assayed for sociability using a three-chamber social approach assay. The arena was constructed of white acrylic (50 cm×35 cm×30 cm). Wire cups (Spectrum Diversified®) were placed in the back left and right corner of the arena beneath water-filled 1 L bottles (Nalgene®). On Day 0, mice were habituated to the arena for 10 min. Immediately following habituation, mice were singly housed. On Day 1 (Pre), mice were placed in the center of the arena and allowed to freely explore. Following 10 min, mice were confined to the center of the arena. An inanimate object (rubber stopper) or a male conspecific were placed beneath the wire cups. Placement of the inanimate object and social target were alternated. […] Sociability was defined as interaction time with the social target divided by total interaction time and expressed as a percentage. […]
Adult male mice were assayed for sociability using a three-chamber social approach assay. […] Sociability was defined as interaction time with the social target divided by total interaction time and expressed as a percentage. […]
Adult male Vgat-Cre MIA offspring were bilaterally injected with virus encoding the inhibitory DREADD receptor fused to mCherry into the vLPO. […] For experiments assaying the effect of CNO and LPS injection in Vgat-Cre PBS and MIA offspring that have not undergone surgery, baseline sociability was assessed on day 1. […]

Q: Which results are given for lipopolysaccharide [LPS]?
A: changes in body temperature ([1]; MIA animals, LPS i.p.): failed to induce changes in body temperature in MIA animals; also recorded: did not induce changes in body temperature in MIA animals; increase in body temperature ([1]; PBS offspring): 0.5-1.0 0 C; increase in body temperature ([1]; control animals (offspring of PBS-injected mothers)): 0.5-1.0 °C; total distance traveled and total interaction time (MIA offspring; LPS injection into i.c.v. blocking antibody-pretreated animals): reduced total distance traveled without affecting total interaction time; overall activity (total investigation time and total distance traveled) (MIA offspring; MIA offspring injected with LPS vs vehicle-treated groups): did not display changes in overall activity

— patent publication US20220072101A1, “HARNESSING INFLAMMATION TO TREAT NEURODEVELOPMENTAL DISORDERS” (President and Fellows of Harvard College, priority 2019, published 2022)
